Compound potency records, mixed from different reports. Data source: NIAID ChemDB in PubChem.

All rows: cytotoxicity tests; cells: VERO; read-out: CC50

Blank or dashed fields: not listed here. CCn: concentration that lowers growth or viability of the cells by n%. Rows are shuffled and stem from different studies.

compound | read by | result
Cc1c(CN2CCSCC2)cc(-c2ccc(Cl)cc2)n1-c1ccc(F)cc1 |  | 8 µg/mL
CCCCS(=O)(=O)Nc1ccc2[nH]c(C(=O)NC)c(C)c2c1 | resazurin | >150 µM
CCc1ccccc1NC(=O)c1c(C)n([O-])c2ccc(F)cc2[n+]1=O |  | >100 µg/mL
CCOC(=O)c1cc(COc2ccc3ccc(C(F)(F)F)nc3c2)on1 |  | >128 µM
Cc1cnc(NC(=S)Nc2ncc(C3CCC3)o2)cc1C | MTT | >207 µM
CCn1cc(C(=O)O)c(=O)c2cc(F)c(N3CCN(CC(=O)c4ccccc4)CC3)c(F)c21 |  | >10 µg/mL
CCCCS(=O)(=O)Nc1ccc2[nH]c(CNS(C)(=O)=O)c(C)c2c1 | resazurin | >130 µM
c1ccc(-c2ccc(CNc3cccc(N4CCOCC4)c3)cc2)cc1 |  | 4 µg/mL
Fc1ccc(NC(=S)Nc2ncc(C3CCC3)o2)cc1 | MTT | >215 µM
CC[C@H](C)[C@H](N)[C@H](O)n1nc(C)c2c(Cl)c3cc(OC)ccc3nc21 |  | >100 µg/mL
Fc1ccc(/C(Cn2ccnc2)=N/OCc2ccccc2)cc1 |  | 8 µg/mL
Cc1c(CN2CCN(C)CC2)cc(-c2ccccc2)n1-c1ccccc1Cl |  | 4 µg/mL
CCCCS(=O)(=O)Nc1ccc2[nH]c(C(=O)N3CCN(C)CC3)c(C)c2c1 | resazurin | >130 µM
C=CCc1nc(C)n2c(=O)[nH]c(NC(C)=O)nc12 |  | 200 µg/mL
Clc1ccc(CNc2cccc(N3CCOCC3)c2)cc1 |  | 16 µg/mL
O=C(NCc1ccc(Cl)cc1)c1c[nH]c2c(F)cccc2c1=O |  | 90 µM
Cc1c(CN2CCSCC2)cc(-c2ccccc2)n1-c1ccc(F)cc1 |  | 8 µg/mL
Cc1cc(NC(=O)NC2C3CC4CC(C3)CC2C4)no1 | MTT | >48 µg/mL
CC(=O)OCc1cc(COc2cc(C(F)(F)F)nc3c(C(F)(F)F)cccc23)on1 |  | >128 µM
CCCCCS(=O)(=O)Nc1ccc2[nH]c(C(=O)NC(C)(C)c3ccccc3)c(C)c2c1 | resazurin | >110 µM
O=c1ccn([C@H]2O[C@@H](CO)[C@H](O)C2(F)F)c(=O)[nH]1 |  | >100 µM
Cc1nc(C(C)C)c2[nH]c(=S)[nH]c(=O)n12 |  | 200 µg/mL
Cc1c(CN2CCN(C)CC2)cc(-c2cccc3ccccc23)n1-c1ccccc1 |  | 4 µg/mL
Nc1nc(=O)n([C@H]2O[C@@H](CO)[C@H](O)C2(F)F)cc1Cl |  | >100 µM
N#Cc1ccc(NC(=O)c2ccc([N+](=O)[O-])o2)cc1 |  | 3.53 µg/mL
FC(F)(F)c1ccccc1NC(=S)Nc1ncc(C2CCC2)o1 | MTT | >183 µM
CCCCS(=O)(=O)Nc1ccc2[nH]c(C(=O)N3CCCCC3)c(C)c2c1 | resazurin | >130 µM
CCc1ccccc1NC(=O)c1c(C)n([O-])c2ccc(C(F)(F)F)cc2[n+]1=O |  | >30 µg/mL
NNC(=O)c1cc(COc2cc(C(F)(F)F)nc3c(C(F)(F)F)cccc23)on1 |  | >128 µM
Cc1c(CN2CCSCC2)cc(-c2ccccc2F)n1-c1cccc2ccccc12 |  | 4 µg/mL
O=c1[nH]c(=O)n([C@@H]2O[C@@H](CO)[C@H](O)C2(F)F)cc1Cl |  | >100 µM
N#CC(NCc1ccc(C=O)cc1)c1ccccc1 | absorbance | 69.6 µM
Cc1nn(-c2ccc(C(N)=O)c(NC3CCC(O)CC3)c2)c2c1C(=O)CC(C)(C)C2 | MTT | 27.06 µg/mL
Clc1ccc(CNc2cccc(-n3ccnc3)c2)cc1 |  | 8 µg/mL
C=CCc1nc(C)n2c(=O)[nH]c(=S)[nH]c12 |  | 200 µg/mL
C(=C\c1ccccc1)/CCNc1ccc(N2CCSCC2)cc1 |  | 4 µg/mL
Cc1cccc(-c2cc(CN3CCN(C)CC3)c(C)n2-c2ccc(F)cc2)c1 |  | 8 µg/mL
CN1CCN(c2cccc(NCc3ccc(Cl)cc3)c2)CC1 |  | 4 µg/mL
Cc1c(CN2CCSCC2)cc(-c2cccc3ccccc23)n1-c1ccccc1 |  | 4 µg/mL
Nc1ccn([C@H]2O[C@@H](CO)[C@H](O)C2(F)F)c(=O)n1 |  | >100 µM
c1ccc(-c2ccc(CNc3ccc(-n4ccnc4)cc3)cc2)cc1 |  | 8 µg/mL
N[C@H](Cc1ccc(-c2ccccc2)cc1)C(=O)O | MTT | >400 µM
O=c1ccn([C@@H]2O[C@@H](CO)[C@H](O)C2(F)F)c(=O)[nH]1 |  | >100 µM
O=C(Nc1ccncc1)c1ccc([N+](=O)[O-])o1 |  | 6.86 µg/mL
Cc1c(CN2CCN(C)CC2)cc(-c2ccccc2Cl)n1-c1ccccc1 |  | 4 µg/mL
Clc1ccc(/C(Cn2ccnc2)=N/OCc2cccc3ccccc23)c(Cl)c1 |  | 8 µg/mL
CCCCS(=O)(=O)Nc1ccc2[nH]c(C(=O)NC3CCCOC3)c(C)c2c1 | resazurin | 130 µM
CCOC(=O)c1cc(COc2cc(C(F)(F)F)nc3c(C(F)(F)F)cccc23)on1 |  | >128 µM
COc1cccc(NC(=O)c2ccc([N+](=O)[O-])o2)c1 |  | 18.63 µg/mL
Clc1ccc(CNc2ccc(-n3ccnc3)cc2)cc1 |  | 2 µg/mL
CCCCCS(=O)(=O)Nc1ccc2[nH]c(C(N)=O)c(C)c2c1 | resazurin | 39 µM
CCc1ccccc1NC(=O)c1c(C)n([O-])c2cc(Cl)c(Cl)cc2[n+]1=O |  | >30 µg/mL
Cc1c(CN2CCN(C)CC2)cc(-c2ccccc2F)n1-c1ccccc1 |  | 2 µg/mL
CCCCS(=O)(=O)Nc1ccc2[nH]c(C(=O)NCCNC(=O)c3ccc([N+](=O)[O-])o3)c(C)c2c1 | resazurin | 100 µM
O=C(Nc1cccnc1)c1ccc([N+](=O)[O-])o1 |  | 12.83 µg/mL
CCNC(=S)Nc1ccc(-c2n[nH]c(=S)n2C)cc1 |  | <0.303 µg/mL
C(=C\c1ccccc1)/CO/N=C(/Cn1ccnc1)c1ccccc1 |  | 12 µg/mL
Cc1c(C(=O)NCc2ccc(C(F)(F)F)cc2)[n+](=O)c2cc(Cl)ccc2n1[O-] |  | >40 µg/mL
[C-]#[N+][C@@]12[C@@](C)(C=C)[C@H](Cl)C[C@@H]3C(C)(C)c4cccc5[nH]c(c(c45)[C@]31O)C(C)(C)[C@]21CO1 | MTS | >128 µM
C[C@H](NC(=O)c1ccc([N+](=O)[O-])o1)c1ccccc1 |  | 25.63 µg/mL
Clc1ccc(/C(Cn2ccnc2)=N/OC/C=C/c2ccccc2)cc1 |  | 3 µg/mL
Cc1c(C(=O)NCc2ccc3c(c2)OCO3)[n+](=O)c2cc(Cl)ccc2n1[O-] |  | >40 µg/mL
c1ccc(-c2ccc(CNc3cccc(N4CCSCC4)c3)cc2)cc1 |  | 32 µg/mL
O=C(OCc1ccccc1)c1cc(COc2cc(C(F)(F)F)nc3c(C(F)(F)F)cccc23)on1 |  | >128 µM
CCCCS(=O)(=O)Nc1ccc2[nH]c(C(=O)NC3CC3)c(C)c2c1 | resazurin | >140 µM
Cc1ccc(N2C(=O)CCC2(C#N)c2ccccc2OCc2ccccc2)cc1 | absorbance | 77.9 µM
Cc1c(CN2CCN(C)CC2)cc(-c2ccccc2)n1-c1cccc2ccccc12 |  | 2 µg/mL
Cc1ccc(N2C(=O)CCC2(C#N)c2ccc(OCc3ccccc3)cc2)cc1 | absorbance | 23.9 µM
Clc1ccc(/C(Cn2ccnc2)=N\OCc2ccccc2)cc1 |  | 2 µg/mL
NC(=O)c1cc(COc2cc(C(F)(F)F)nc3c(C(F)(F)F)cccc23)on1 |  | >128 µM
NCC1(c2ccccc2)CCC(=O)N1Cc1ccccc1 | absorbance | >100 µM
CCc1ccccc1NC(=O)c1c(C)n([O-])c2cc(F)c(F)cc2[n+]1=O |  | >30 µg/mL
Clc1ccc(/C(Cn2ccnc2)=N\OCc2cccc3ccccc23)c(Cl)c1 |  | 12 µg/mL
Cc1c(CN2CCN(C)CC2)cc(-c2ccccc2)n1-c1ccccc1F |  | 2 µg/mL
Nc1ccc(-n2cc(C(=O)O)c(=O)c3cc(F)c(N4CCNCC4)cc32)c(F)c1 |  | >62.5 µg/mL

A second listing of 10 rows from above:

{"compound": "NC(=O)c1cc(COc2cc(C(F)(F)F)nc3c(C(F)(F)F)cccc23)on1", "result": ">128 µM"}
{"compound": "CCCCS(=O)(=O)Nc1ccc2[nH]c(C(=O)NC)c(C)c2c1", "read by": "resazurin", "result": ">150 µM"}
{"compound": "CCCCS(=O)(=O)Nc1ccc2[nH]c(C(=O)NC3CC3)c(C)c2c1", "read by": "resazurin", "result": ">140 µM"}
{"compound": "CCCCCS(=O)(=O)Nc1ccc2[nH]c(C(=O)NC(C)(C)c3ccccc3)c(C)c2c1", "read by": "resazurin", "result": ">110 µM"}
{"compound": "Clc1ccc(/C(Cn2ccnc2)=N/OC/C=C/c2ccccc2)cc1", "result": "3 µg/mL"}
{"compound": "CCCCS(=O)(=O)Nc1ccc2[nH]c(C(=O)N3CCCCC3)c(C)c2c1", "read by": "resazurin", "result": ">130 µM"}
{"compound": "c1ccc(-c2ccc(CNc3cccc(N4CCOCC4)c3)cc2)cc1", "result": "4 µg/mL"}
{"compound": "N[C@H](Cc1ccc(-c2ccccc2)cc1)C(=O)O", "read by": "MTT", "result": ">400 µM"}
{"compound": "Cc1cccc(-c2cc(CN3CCN(C)CC3)c(C)n2-c2ccc(F)cc2)c1", "result": "8 µg/mL"}
{"compound": "Cc1c(CN2CCN(C)CC2)cc(-c2ccccc2)n1-c1ccccc1Cl", "result": "4 µg/mL"}